A mixed list of measured activities; the numbers were collected in NIAID ChemDB.

Common to all: whole-cell or culture tests; species: Cryptosporidium parvum; measure: inhibition

Percent inhibition refers to the dose given; in toxicity tests it is the harm to the cells.

| compound | cell line | dose | result |
|---|---|---|---|
| CC[C@H]1OC(=O)[C@H](C)[C@@H](O[C@H]2C[C@@](C)(OC)[C@@H](O)[C@H](C)O2)[C@H](C)[C@@H](O[C@@H]2O[C@H](C)C[C@H](N(C)C)[C@H]2O)[C@](C)(O)C[C@@H](C)CN(C)[C@H](C)[C@@H](O)[C@]1(C)O | A549 | 8 µg/mL | 25.5% |
| CCN(CC)CCSc1c2ccccc2nc2cc(N)ccc12 | - | 50 µg/mL | 48% |
| C=C/C=C/c1cc(OC)cc(=O)o1 | - | 25 µM | 93% |
| Cc1cc(O)c2c(c1Cl)C(=O)c1cn[nH]c1C2=O | - | 100 µM | <10% |
| COc1ccc(/C=C\C=C\c2cc(OC)cc(=O)o2)cc1 | - | 10 µM | 0% |
| COc1cccc2c1C(=O)c1cnn(C)c1C2=O | - | 25 µM | <10% |
| Nc1ccc2c(SCc3ccc([N+](=O)[O-])cc3)c3ccccc3nc2c1 | - | 10 µg/mL | 42% |
| CCn1nc(Cc2ccccc2)c2c1C(=O)c1c(OC(C)=O)c(C)c(C)c(OC(C)=O)c1C2=O | - | 100 µM | <10% |
| O=C(c1ccccc1)c1oc2cc(O)cc(Cc3ccccc3)c2c1O | - | 50 µM | 11% |
| CCn1ncc2c1C(=O)c1c(O)ccc(O)c1C2=O | - | 100 µM | <10% |
| COc1cc(/C=C2\Oc3cc(O)cc(O)c3C2=O)cc(OC)c1O | - | 50 µM | 94% |
| Cc1cc(O)c2c(c1)C(=O)c1c(cnn1C)C2=O | - | 50 µM | 45% |
| COc1ccc(/C=C2\Oc3cc(O)cc(O)c3C2=O)cc1O | - | 50 µM | 95% |
| CSc1c2ccccc2nc2ccccc12 | - | 10 µg/mL | 20% |
| COc1cc(/C=C/C=C\c2ccc3c(c2)OCO3)oc(=O)c1 | - | 50 µM | 0% |
| O=[N+]([O-])c1ccc(Sc2c3ccccc3nc3cc(Cl)ccc23)cc1 | - | 50 µg/mL | 37% |
| O=C1c2cn[nH]c2C(=O)c2c(O)ccc(O)c21 | - | 50 µM | 100% |
| CC[C@@H](C(=O)[C@@H](C)[C@@H](O)[C@H](C)CCc1ccc(C)c(O)c1C(=O)O)[C@H]1O[C@](CC)([C@H]2CC[C@](O)(CC)[C@H](C)O2)C[C@@H]1C | A549 | 0.5 µg/mL | 28% |

For reference, 2 entries again:

compound	cell line	dose	result
CCn1ncc2c1C(=O)c1c(O)ccc(O)c1C2=O	-	100 µM	<10%
COc1cc(/C=C2\Oc3cc(O)cc(O)c3C2=O)cc(OC)c1O	-	50 µM	94%

Blank or dashed fields: not listed here. Rows are shuffled and stem from different studies.